# B1: Shc1 pTyr317 peptide (DPSpYVNVQNL) on the permutation array (peptide)
# peptide: DPSYVNVQNL
# B2: L. pneumophila RavO SH2 domain (residues 225-344, crystallised with the Shc1 peptide) (domain or fragment)
# chain: ESEKIYKVMEEIFVDRHYKENIRTGEEVKQYFSKSKAEFILRWSSANESDTENKYVFIAASFQASDGIHSIRYGINKNGELFSINTASNKVTPIDILPLGVMATLTQHITQNKELIEKAL
# What was measured:
# [1] = target: T1, GST-fused L. pneumophila RavO SH2 domain (Gly212-Asp406) (Legionella pneumophila, UniProt Q5ZWF6 212-406); assay: peptide or protein array
# T1 construct: also called GST-RavO SH2; GST-tagged RavO SH2 domain; source: E. coli BL21(DE3), purified (Ni-NTA, dialysis)
# [2] = target: the molecule itself; assay: crystal structure
Binder,binding result [1],binding result [2]
B1,binds,
B2,,binds

# From publication PMC6208348 (Nature Communications, 2018)
